Tested on: RSV (Group A, Long Strain)
Assay: Antiviral cytopathic effect (CPE) protection assay, MTT readout
Assay type: cell-based, human respiratory syncytial virus (RSV)
Parameters: key: NW: No window
Conditions: ratio of MTT TD50 to RSV EC50; NW = no window
Description: HEp-2 cells and RSV (Group A, Long Strain) were obtained from the American Type Culture Collection (Manassas, Va.).
A cytopathic effect (CPE) protection assay was performed to determine the ability of a compound to protect the cells from viral infection and thus the CPE induced by viral infection. 96-Well plates were first seeded with 3×10^3 HEp-2 cells per well in Dulbecco's modified Eagle's medium (DMEM) containing 10% fetal bovine serum (FBS). One day after the cells were seeded, they were preincubated with serial dilutions of compounds prepared in 100 μL assay medium (DMEM mixed with F12 medium at a 1:1 ratio, supplemented with 2% FBS and 1 mM sodium pyruvate) for 1 hour at 37° C. 100 μL of assay medium containing 0.2 multiplicity of infection (MOI) of RSV was then added to each well of cells. In addition to wells containing infected cells incubated with compounds, each plate also contained replicates of two kinds of controls: (1) Virus control contained cells infected with 0.2 MOI of RSV in assay medium, (2) Uninfected cell control contained cells incubated with assay medium only. After 4 days of incubation at 37° C., the viability of cells was assessed using MTT (Thiazolyl blue tetrazolium bromide, Sigma). A stock solution of MTT, at a concentration of 4 mg/mL in phosphate-buffered saline, was added to all wells at 25 μL per well. Plates were further incubated for 4 hours, and each well was then treated with 50 μL of a solution containing 20% sodium dodecyl sulfate (SDS) and 0.02 N HCl. After an overnight incubation, the plates were measured on a BioTek® microtiter plate reader at wavelengths of 570 nm and 650 nm. The MTT detection is based on the fact that viable (uninfected) cells can reduce the tetrazolium salts into colored formazan products, which can then be quantitated by spectrometry. Based on the spectrometric absorbance of each sample, the percent of protection from CPE, which is an indicator of protection from viral infection, can be calculated for each compound and the 50% effective concentrations (EC50) can be calculated using a nonlinear regression curve fitting equation provided by the GraphPad Prism® 4 software.
Compounds were tested to determine both their antiviral and toxicity to determine their therapeutic window. Determination of the EC50 and TD50 of these active compounds were repeated one additional time to confirm the window.

With `Cc1c(C(C)N(Cc2cccn2-c2nccs2)Cc2cccn2-c2nccs2)cnn1-c1cccc(F)c1` (racemic) [Example 1, 1-[1-(3-fluorophenyl)-5-methyl-1H-pyrazol-4-yl]-N,N-bis{[1-(1,3-thiazol-2-yl)-1H-pyrrol-2-yl]methyl}ethanamine] the “Window (TD50/EC50)” value was 99.
For `Cc1c([C@H](C)N(Cc2cccn2-c2nccs2)Cc2cccn2-c2nccs2)cnn1-c1cccc(F)c1` [Example 2, (1S)-1-[1-(3-fluorophenyl)-5-methyl-1H-pyrazol-4-yl]-N,N-bis{[1-(1,3-thiazol-2-yl)-1H-pyrrol-2-yl]methyl}ethanamine], the “Window (TD50/EC50)” value was over 450.
With `Cc1c([C@@H](C)N(Cc2cccn2-c2nccs2)Cc2cccn2-c2nccs2)cnn1-c1cccc(F)c1` [Example 3, (1R)-1-[1-(3-fluorophenyl)-5-methyl-1H-pyrazol-4-yl]-N,N-bis{[1-(1,3-thiazol-2-yl)-1H-pyrrol-2-yl]methyl}ethanamine] the “Window (TD50/EC50)” value was over 33.
`COc1ccccc1CN(Cc1cccn1-c1nccs1)C(C)c1cnn(-c2cccc(F)c2)c1C` (stereo not drawn) [Example 4, 1-[1-(3-fluorophenyl)-5-methyl-1H-pyrazol-4-yl]-N-(2-methoxybenzyl)-N-{[1-(1,3-thiazol-2-yl)-1H-pyrrol-2-yl]methyl}ethanamine] was tested, and the “Window (TD50/EC50)” value was “NW”.
For `Cc1c(C(C)N(Cc2ccc(Cl)cc2-c2ccnc(C(F)(F)F)n2)Cc2cccn2-c2nccs2)cnn1-c1cccc(F)c1` (stereo not drawn) [Example 5, N-{4-chloro-2-[2-(trifluoromethyl)pyrimidin-4-yl]benzyl}-1-[1-(3-fluorophenyl)-5-methyl-1H-pyrazol-4-yl]-N-{[1-(1,3-thiazol-2-yl)-1H-pyrrol-2-yl]methyl}ethanamine], the “Window (TD50/EC50)” value was “NW”.
With `Cc1cccc(C)c1-n1ccc(CN(Cc2cccn2-c2nccs2)C(C)c2cnn(-c3cccc(F)c3)c2C)c1` (stereo not drawn) [Example 6, N-{[1-(2,6-dimethylphenyl)-1H-pyrrol-3-yl]methyl}-1-[1-(3-fluorophenyl)-5-methyl-1H-pyrazol-4-yl]-N-{[1-(1,3-thiazol-2-yl)-1H-pyrrol-2-yl]methyl}ethanamine] the “Window (TD50/EC50)” value was “NW”.
With `Cc1c(C(C)N(Cc2ncc(-c3ccccc3)n2C)Cc2ncc(-c3ccccc3)n2C)cnn1-c1cccc(F)c1` (stereo not drawn) [Example 7, 1-[1-(3-fluorophenyl)-5-methyl-1H-pyrazol-4-yl]-N,N-bis[(1-methyl-5-phenyl-1H-imidazol-2-yl)methyl]ethanamine] the “Window (TD50/EC50)” value was 16.
In the case of `Cn1nccc1N(Cc1cccn1-c1nncs1)Cc1cccn1-c1nncs1` [Example 9, 1-methyl-N,N-bis{[1-(1,3,4-thiadiazol-2-yl)-1H-pyrrol-2-yl]methyl}-1H-pyrazol-5-amine], the “Window (TD50/EC50)” value is reported as over 6.5.
`c1ccc(CN(Cc2cccn2-c2nncs2)Cc2cccn2-c2nncs2)cc1` [Example 10, 1-phenyl-N,N-bis{[1-(1,3,4-thiadiazol-2-yl)-1H-pyrrol-2-yl]methyl}methanamine] was tested, and the “Window (TD50/EC50)” value was 187.
For `c1cc(CN(Cc2cccn2-c2nncs2)CC2C[C@H]3CC[C@@H]2C3)n(-c2nncs2)c1` (stereo partly drawn) [Example 11, 1-[(1R,4S)-bicyclo[2.2.1]hept-2-yl]-N,N-bis{[1-(1,3,4-thiadiazol-2-yl)-1H-pyrrol-2-yl]methyl}methanamine], the “Window (TD50/EC50)” value was 46.
For `Cc1ccccc1CN(Cc1cccn1-c1nncs1)Cc1cccn1-c1nncs1` [Example 12, 1-(2-methylphenyl)-N,N-bis{[1-(1,3,4-thiadiazol-2-yl)-1H-pyrrol-2-yl]methyl}methanamine], the “Window (TD50/EC50)” value was over 157.
`C[C@H](c1ccc(F)cc1)N(Cc1cccn1-c1nncs1)Cc1cccn1-c1nncs1` [Example 13, (1R)-1-(4-fluorophenyl)-N,N-bis{[1-(1,3,4-thiadiazol-2-yl)-1H-pyrrol-2-yl]methyl}ethanamine] was tested, and the “Window (TD50/EC50)” value was 7.
`Clc1cnc(CN(Cc2cccn2-c2nncs2)Cc2cccn2-c2nncs2)c(Cl)c1` [Example 14, 1-(3,5-dichloropyridin-2-yl)-N,N-bis{[1-(1,3,4-thiadiazol-2-yl)-1H-pyrrol-2-yl]methyl}methanamine] was tested, and the “Window (TD50/EC50)” value was 19.
With `Fc1ccccc1CN(Cc1cccn1-c1nncs1)Cc1cccn1-c1nncs1` [Example 15, 1-(2-fluorophenyl)-N,N-bis{[1-(1,3,4-thiadiazol-2-yl)-1H-pyrrol-2-yl]methyl}methanamine] the “Window (TD50/EC50)” value was 547.
For `FC(F)(F)c1cccc(CN(Cc2cccn2-c2nncs2)Cc2cccn2-c2nncs2)c1` [Example 16, 1-[1-(1,3,4-thiadiazol-2-yl)-1H-pyrrol-2-yl]-N-{[1-(1,3,4-thiadiazol-2-yl)-1H-pyrrol-2-yl]methyl}-N-[3-(trifluoromethyl)benzyl]methanamine], the “Window (TD50/EC50)” value was 14.
In the case of `CC(c1ccc(Cl)c(Cl)c1)N(Cc1cccn1-c1nncs1)Cc1cccn1-c1nncs1` (stereo not drawn) [Example 17, 1-(3,4-dichlorophenyl)-N,N-bis{[1-(1,3,4-thiadiazol-2-yl)-1H-pyrrol-2-yl]methyl}ethanamine], the “Window (TD50/EC50)” value is reported as over 2.
With `Clc1ccccc1CN(Cc1cccn1-c1nncs1)Cc1cccn1-c1nncs1` [Example 18, 1-(2-chlorophenyl)-N,N-bis{[1-(1,3,4-thiadiazol-2-yl)-1H-pyrrol-2-yl]methyl}methanamine] the “Window (TD50/EC50)” value was over 512.
`C[C@H](c1ccccc1Cl)N(Cc1cccn1-c1nncs1)Cc1cccn1-c1nncs1` [Example 19, (1R)-1-(2-chlorophenyl)-N,N-bis{[1-(1,3,4-thiadiazol-2-yl)-1H-pyrrol-2-yl]methyl}ethanamine] was tested, and the “Window (TD50/EC50)” value was over 11.
In the case of `C[C@@H](c1ccccc1Cl)N(Cc1cccn1-c1nncs1)Cc1cccn1-c1nncs1` [Example 20, (1S)-1-(2-chlorophenyl)-N,N-bis{[1-(1,3,4-thiadiazol-2-yl)-1H-pyrrol-2-yl]methyl}ethanamine], the “Window (TD50/EC50)” value is reported as over 88.
With `c1ccc(C2(CCN(Cc3cccn3-c3nncs3)Cc3cccn3-c3nncs3)CC2)nc1` [Example 21, 2-[1-(pyridin-2-yl)cyclopropyl]-N,N-bis{[1-(1,3,4-thiadiazol-2-yl)-1H-pyrrol-2-yl]methyl}ethanamine] the “Window (TD50/EC50)” value was over 518.
`c1ccc(N(Cc2cccn2-c2nncs2)Cc2cccn2-c2nncs2)cc1` [Example 22, N,N-bis{[1-(1,3,4-thiadiazol-2-yl)-1H-pyrrol-2-yl]methyl}aniline] was tested, and the “Window (TD50/EC50)” value was over 1.1.
With `FC1(F)CCC(CN(Cc2cccn2-c2nncs2)Cc2cccn2-c2nncs2)CC1` [Example 23, 1-(4,4-difluorocyclohexyl)-N,N-bis{[1-(1,3,4-thiadiazol-2-yl)-1H-pyrrol-2-yl]methyl}methanamine] the “Window (TD50/EC50)” value was over 41.
With `c1cncc(C2(CCN(Cc3cccn3-c3nncs3)Cc3cccn3-c3nncs3)CC2)c1` [Example 24, 2-[1-(pyridin-3-yl)cyclopropyl]-N,N-bis{[1-(1,3,4-thiadiazol-2-yl)-1H-pyrrol-2-yl]methyl}ethanamine] the “Window (TD50/EC50)” value was over 35.
In the case of `CC(Cc1cccs1)N(Cc1cccn1-c1nncs1)Cc1cccn1-c1nncs1` (stereo not drawn) [Example 25, N,N-bis{[1-(1,3,4-thiadiazol-2-yl)-1H-pyrrol-2-yl]methyl}-1-(thiophen-2-yl)propan-2-amine], the “Window (TD50/EC50)” value is reported as 7.3.
With `c1cncc(C2(CN(Cc3cccn3-c3nncs3)Cc3cccn3-c3nncs3)CC2)c1` [Example 26, 1-[1-(pyridin-3-yl)cyclopropyl]-N,N-bis{[1-(1,3,4-thiadiazol-2-yl)-1H-pyrrol-2-yl]methyl}methanamine] the “Window (TD50/EC50)” value was over 94.
In the case of `c1cc(CN(CCC2(c3ccncc3)CC2)Cc2cccn2-c2nncs2)n(-c2nncs2)c1` [Example 27, 2-[1-(pyridin-4-yl)cyclopropyl]-N,N-bis{[1-(1,3,4-thiadiazol-2-yl)-1H-pyrrol-2-yl]methyl}ethanamine], the “Window (TD50/EC50)” value is reported as over 40.
`N#Cc1cc(CN(Cc2cccn2-c2nncs2)Cc2cccn2-c2nncs2)cs1` [Example 28, 4-[(bis{[1-(1,3,4-thiadiazol-2-yl)-1H-pyrrol-2-yl]methyl}amino)methyl]thiophene-2-carbonitrile] was tested, and the “Window (TD50/EC50)” value was over 132.
In the case of `Clc1ccc(CN(Cc2cccn2-c2nccs2)Cc2cccn2-c2nccs2)c(Cl)c1` [Example 29, 1-(2,4-dichlorophenyl)-N,N-bis{[1-(1,3-thiazol-2-yl)-1H-pyrrol-2-yl]methyl}methanamine], the “Window (TD50/EC50)” value is reported as over 101.
With `COc1ccc(CN(Cc2cccn2-c2nccs2)Cc2cccn2-c2nccs2)c(OC)c1` [Example 30, 1-(2,4-dimethoxyphenyl)-N,N-bis{[1-(1,3-thiazol-2-yl)-1H-pyrrol-2-yl]methyl}methanamine] the “Window (TD50/EC50)” value was 91.
For `c1ccc(CN(Cc2cccn2-c2nccs2)Cc2cccn2-c2nccs2)cc1` [Example 31, 1-phenyl-N,N-bis{[1-(1,3-thiazol-2-yl)-1H-pyrrol-2-yl]methyl}methanamine], the “Window (TD50/EC50)” value was 48.

— US10233179B2, “Thiazoles and uses thereof” (AbbVie Inc., priority 2013, dated 2019)
